Reference: US7390890B2, “Inhibitors of nucleoside metabolism” (Albert Einstein College of Medicine of Yeshiva University, priority 1997, dated 2008)

Chains of the proteins cited; added tags and fusions are not shown. Residues count along the entry.
UniProt Q57ZL6, 1-327: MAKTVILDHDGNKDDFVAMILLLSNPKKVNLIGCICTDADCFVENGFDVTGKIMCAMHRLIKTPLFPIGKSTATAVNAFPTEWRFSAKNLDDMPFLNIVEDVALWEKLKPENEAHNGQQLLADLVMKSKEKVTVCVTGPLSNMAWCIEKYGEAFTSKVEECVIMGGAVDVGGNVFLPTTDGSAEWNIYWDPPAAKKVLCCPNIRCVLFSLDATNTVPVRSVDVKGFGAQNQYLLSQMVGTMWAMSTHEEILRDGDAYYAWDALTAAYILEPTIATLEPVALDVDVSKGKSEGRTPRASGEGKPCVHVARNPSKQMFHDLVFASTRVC

Molecular target: nucleoside hydrolase from Trypanosoma brucei brucei (Trypanosoma brucei brucei, UniProt Q57ZL6)
Settings: read-out: Ki Values; nucleoside hydrolase T. brucei brucei; Ia average of multiple determinations, Ib, Ic, Va single determination; tested form: HCl

Nc1nc2c(C3NC(CO)C(O)C3O)c[nH]c2c(=O)[nH]1 (stereo not shown)
Ki: 0.9 nM
